Human monoclonal antibodies against the spike receptor-binding domain (heavy:light variable regions). IC50 against pseudoviruses bearing the spike of naturally observed variants; lower = stronger; >10 µg/ml means not reached at the top dose. No active / inactive call. The stated detection limit is 0.0005 µg/ml; values near or below 0.001 µg/ml lie at the floor of the assay.
B1: XGv-284 (protein)
chain 1: EVQLVESGGGLEQPGRSLRLSCVASGFTFDDYAMHWVRQAPGKGLEWVSGSSWNSGTIGYADSVKGRFIISRDNAMNSLYLHINTLTTEDTALYYCAKDIGSGDGYNFAFDIWGQGTMVTVSS
chain 2: QSVLTQPPSVSGAPGQRVTVSCTGSSSNIGAGFDVHWYQRLPGTAPKLLIYGNNNRPSGVPDRFSGSKSGTSASLAITGLQAEDEADYYCQSYDSSLSGVVFGGGTKLTV
B2: XGv-253 (protein)
chain 1: EVQLVESGGGLVQPGGSLRLSCAASGFTFSRYDMHWVRQAAGKGLEWVSGIGAPGDTYYAGSVKGRFTISRENAKTSLHLQMNNLRAGDTAVYYCTRGWFGENYMDVWGKGTTVTVSS
chain 2: EIVLTQSPATLSLSPGERATLSCRASQSVSNHLAWFQQKPGQSPRLLIYDASNRATGIPARFSGSGSGTDFTLTISSLEPEDFAIYYCHQRSNWPTFGQGTKVEIK
B3: XGv-300 (protein)
chain 1: EVQLVESGGGLMQPGGSLRLSCAASGFIVSRNYMNWVRQAPGKGLEWVSVIYSGGTTDYADSVKGRFTISRDNSMNTLYLQMNSLRVEDTAVYYCARDLVVFGMDVWGQGTTVTVSS
chain 2: DIQLTQSPSSLSASVRDRVTITCRASQGISSYLAWYQQKPGKAPKLLIYAASTLQSGVPSRFSGSGSGTDFTLTITSLQPEDFATYYCQHLNGYPLTFGGGTKVEIK
B4: XGv-261 (protein)
chain 1: QLQLQESGPGLVRPSETLSLTCTVSGGSITDSGYYWGWIRQPPGKGLEWIGNIFYSGSTYYNPSLKSRVTISVDTSKNQFSLRLSSVTAADTAVYYCAREIGIIDYWGQGSLVIVSS
chain 2: DIQMTQSPSSLSASVGDRVTITCRASQGISNSLAWYQQKPGKAPKLLLYGASTLESGVPSRFSGSGSGTHFTLTISSLQPEDFATYFCQQYYSSPPRTFGGGTKVEI
B5: XGv-236 (protein)
chain 1: EVQLVESGGGLVQPGGSLRLSCAASGITFSSYWMHWVRQGPGKGLVWVSLINSDGSTTTYADSVKGRFTISRDNAKNTLHLQMNSLRAEDTAVYYCATSQWLRGGMDVWGQGTTVTVSS
chain 2: NFMLTQPHSVSESPGKTVTISCTGSSGSIASNYVQWYQQRPGSAPTIVIYEDNQRPSGVPDRFSGSIDSSSNSASLTISGLKTEDEADYYCQSYDSSTYVVFGGG
B6: XGv-250 (protein)
chain 1: QVQLVQSGAEVKKPGSSVKVSCKASGNTFSSHSITWVRQAPGQGLEWMGRIMPMLGIANYAQKFQGRVTITADKSTNTAYMDLSSLRSEDTAVYYCACGRLGESSLYLIDYWGQGTLVTVSS
chain 2: NFMLTQPHSVSESPGKTVTISCTRSSGSIASNYVQWYQRRPGSAPTTLIYEDNQRPSGVPDRFSGSIDSSSNSASLIISGLKTEDEADYYCQSYDLSNWVFGGGTKLTVL
B7: XGv-233 (protein)
chain 1: QVQLQESGPGLVKPSQTLSLTCTVSGGSINTGGFCWSWLRQLPGKGLEWLGHIYYSGDTYYNPSLNSRLRISVDTSRKQFSLKLSSVTAADTAVYYCARALTDPGWFDPWGHGTLVTVSS
chain 2: SYVLTQPPSVSVAPGKTASITCGGNNIGSKSVHWYQQKPGQAPVMVIYYDSARPSGIPERFSGSNSGDTATLTISRVEAGDEADYHCQVWDSNTDHPVFGGGTKLTV

Key:
Assay in all cases: pseudovirus neutralization IC50; higher = weaker neutralization
[1] = molecular target: SARS-CoV-2 Omicron BA.1 spike pseudovirus
Experimental: (§1)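 Single-round VSV luciferase pseudovirus mixed with antibody dilutions for 1 h and put on Huh-7 cells for about a day; IC50 from the dose curve.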

[2] = molecular target: SARS-CoV-2 Omicron BA.2 spike pseudovirus
Experimental: as §1

[3] = molecular target: SARS-CoV-2 Omicron BA.2.75 spike pseudovirus
Experimental: as §1

[4] = molecular target: SARS-CoV-2 Omicron BA.5 spike pseudovirus
Experimental: as §1

[5] = molecular target: SARS-CoV-2 Omicron BQ.1.1 spike pseudovirus
Experimental: as §1

[6] = molecular target: SARS-CoV-2 Omicron XBB spike pseudovirus
Experimental: as §1

[7] = molecular target: SARS-CoV-2 early D614G spike pseudovirus
Experimental: as §1

| Binder | pseudovirus neutralization IC50 [1] [µg/mL] | pseudovirus neutralization IC50 [2] [µg/mL] | pseudovirus neutralization IC50 [3] [µg/mL] | pseudovirus neutralization IC50 [4] [µg/mL] | pseudovirus neutralization IC50 [5] [µg/mL] | pseudovirus neutralization IC50 [6] [µg/mL] | pseudovirus neutralization IC50 [7] [µg/mL] |
| --- | --- | --- | --- | --- | --- | --- | --- |
| B1 | 0.0195 | 0.154 | 0.672 | > 10 | > 10 | > 10 | 0.0215 |
| B2 | > 10 | > 10 | 0.0316 |  |  |  | 0.0111 |
| B3 | 0.0806 | 0.144 | > 10 | 0.709 | > 10 | > 10 | 0.0732 |
| B4 | 0.0121 | 0.0173 | 0.0345 | > 10 | > 10 | > 10 | 0.0173 |
| B5 | > 10 | > 10 | > 10 | > 10 | > 10 | > 10 | 0.253 |
| B6 | > 10 | 0.916 | > 10 | > 10 | > 10 | > 10 | 0.333 |
| B7 | 1.19 | 2.12 | 1.07 | > 10 | > 10 | > 10 | 0.26 |
